Data as given in patent US20050114927A1 (RUTGERS THE STATE UNIVERSITY, published 2005).

Biological target: T1, Pokeweed antiviral protein (PAP) (Phytolacca americana (pokeweed), UniProt P10297 23-285)
T1 construct: mature
T1 sequence: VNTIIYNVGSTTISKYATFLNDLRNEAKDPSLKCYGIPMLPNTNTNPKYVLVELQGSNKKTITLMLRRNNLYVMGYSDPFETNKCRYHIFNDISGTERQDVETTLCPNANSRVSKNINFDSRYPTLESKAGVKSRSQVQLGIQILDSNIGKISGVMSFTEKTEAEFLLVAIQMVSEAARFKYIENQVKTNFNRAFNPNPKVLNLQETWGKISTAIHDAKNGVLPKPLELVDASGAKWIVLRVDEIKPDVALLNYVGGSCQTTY
Assay: co-immunoprecipitation, isolated proteins in vitro

B1: Mak8-1p (mutant yeast L3, W255C, P257S), in vitro synthesized, free form (other)
chain: MSHRKYEAPRHGHLGFLPRKRAASIRARVKAFPKDDRSKPVALTSFLGYKAGMTTIVRDLDRPGSKFHKREVVEAVTVVDTPPVVVVGVVGYVETPRGLRSLTTVWAEHLSDEVKRRFYKNWYKSKKKAFTKYSAKYAQDGAGIERELARIKKYASVVRVLVHTQIRKTPLAQKKAHLAEIQLNGGSISEKVDWAREHFEKTVAVDSVFEQNEMIDAIAVTKGHGFEGVTHRWGTKKLPRKTHRGLRKVACIGACHSAHVMWSVARAGQRGYHSRTSINHKIYRVGKGDDEANGATSFDRTKKTITPMGGFVHYGEIKNDFIMVKGCIPGNRKRIVTLRKSLYTNTSRKALEEVSLKWIDTASKFGKGRFQTPAEKHAFMGTLKKDL
notes: also called Mak8 (W255C, P257S); mak8-1 gene product
binding result: binds
